# Tested on: avian influenza A H5N1 viruses or hybrid viruses
# Experiment: Activity of 5-F carbodine against avian influenza A H5N1 viruses or hybrid viruses, in vitro
# Conditions: values only in FIG. 2
smiles,measurement,value
Nc1nc(=O)n([C@@H]2C[C@H](CO)[C@@H](O)[C@H]2O)cc1F,activity in vitro against avian Influenza A H5N1 strain,quite active

# Reference: patent US8242120B2 (priority 2007, dated 2012)
